# Measurements reported in patent US20250026796A1 (priority 2022, published 2025).
# Tested on: 2E-N antibody
# Assay: ELISA comparing affinity of 2E-N antibody to 2ED and wild-type peptides
# Conditions: 2ED compared to wild-type
sequence,measurement,value
MYSFVSDDTGTLIVNSVL,Binding affinity of the 2E antibody to peptide,reduces the binding affinity
